Assay results taken from patent US20230380451A1, “MEANS AND METHODS TO DETOXIFY MYCOTOXINS” (priority 2020, published 2023).

System: primary epithelial cells derived from rainbow trout

For CC1=C[C@H]2O[C@@H]3[C@H](O)C[C@](C)([C@@]2(CO)[C@H](O)C1=O)[C@]31CO1 [DON, (3α,7α)-3,7,15-trihydroxy-12,13-epoxytrichothec-9-en-8-one], the “Toxicity towards epithelial cells (fluorescence relative to highest DON concentration = 100%)” value was 85.6%.
